This is a selection: effects in other tests are not listed, and their absence says nothing.
Tests used:
HepG2.2.15 = test: Determination of cytotoxicity (MTT) in HepG2.2.15 cells; settings: read-out: CC50(μM) in HepG2.2.15, 10th day from treatment with drug
Hepatitis B Virus (HBV) = test: Inhibition of hepatitis B virus replication in HepG2.2.15 cell culture, quantitative PCR; type: cell-based; settings: read-out: EC50(μM) in HBV; HepG2.2.15 culture medium, 10 days after treatment with drug, PCR of HBV DNA
HBV = test: Pharmacological test on HBV transgenic mouse (serum HBV DNA by PCR); type: in vivo, HBV transgenic mice (FVB strain); settings: subcutaneous, 10 mg/kg/day for 9 days; effect = blood does not contain HBV DNA

Substance	CC50 (HepG2.2.15)	EC50 (Hepatitis B Virus (HBV))	Result: number of mice showing pharmacological effect/number of total mice (HBV)
{[1-({2-amino-[6-(4-methoxyphenyl)sulfanyl]-9H-purin-9-yl}methyl)-2-methylcyclopropyl]oxy}methylphosphonic acid	> 1000 µM	> 5 µM	–
{[1-({2-amino-[6-(4-methylphenyl)sulfanyl]-9H-purin-9-yl}methyl)-2-methylcyclopropyl]oxy}methylphosphonic acid	> 1000 µM	> 0.1 µM	–
{[1-({2-amino-[6-(4-nitrophenyl)sulfanyl]-9H-purin-9-yl}methyl)-2-methylcyclopropyl]oxy}methylphosphonic acid	> 1000 µM	> 0.05 µM	–
{[1-({2-amino-[6-(4-nitrophenyl)sulfanyl]-9H-purin-9-yl}methyl)cyclopropyl]oxy}methylphosphonic acid	> 1000 µM	> 0.5 µM	3/4

— patent US20040063668A1, “Novel acyclic nucleoside phosphonate derivatives, salts thereof and process for the preparation of the same” (priority 2001, published 2004)
